Results of unrelated studies side by side (data: NIAID ChemDB).

Shared fields: growth or infection tests

Rows are shuffled and stem from different studies.

compound	species	strain	cells	read by	measure	dose	result
CCCCCCCCCCCCCCCCCCCCCCOCC(C)(COCCCCCCCCCCCCCCCCCCCCCC)CO[C@]1(C(=O)O)C[C@H](OS(=O)(=O)O)[C@@H](NC(C)=O)[C@H]([C@H](OS(=O)(=O)O)[C@@H](COS(=O)(=O)O)OS(=O)(=O)O)O1	Rotavirus	Hosokawa (serotype 4)	MA-104	plaque count	EC50	-	1.7 µg/mL
Fc1cccc(Cn2cnc3c(Nc4cccc(F)c4)nc(C(F)(F)F)nc32)c1	Rhinovirus	Serotype 45	M-HELA	plaque count	EC50	-	4.1 µM
Cc1cn([C@@H]2O[C@H](CO)[C@@H](O)[C@@H]2O)c(=O)[nH]c1=O	Varicella zoster virus	KANNO	HELF	plaque count	inhibition	0.1 µg/mL	99%
OC[C@H]1O[C@@H](n2cnc3c(SCc4ccc(Cl)cc4Cl)ncnc32)[C@H](O)[C@@H]1O	Toxoplasma gondii	RH (WILD TYPE)	-	-	inhibition	10 µM	20.9%
C[C@@H](NC(=O)c1c2n(c(=O)n1-c1ccc(OCC(F)(F)F)cc1)CCN(C(=O)c1ccc(Br)c(Cl)c1)C2)c1ccc(OCC(N)=O)cc1F	Hepatitis B virus	-	HepG2.117	PCR	EC50	-	0.5–5 µM
Nc1ncnc2c1ncn2[C@@H]1C[C@H](N)[C@@H](O)[C@H]1O	Measles virus	SA	CV-1	cytopathic effect	EC50	-	>100 µg/mL
C[C@@H](c1ncncc1F)[C@](O)(Cn1cncn1)c1ccc(F)cc1F	Cryptococcus gattii	-	-	broth dilution	MIC50	-	0.125 µg/mL
Nc1ncnc2c1ncn2[C@H]1C[C@@H](N)[C@H](O)[C@@H]1O	Measles virus	-	CV-1	neutral red	EC50	-	>100 µg/mL
Cc1ccc2c(c1)C(C1SCC(=O)N1NC(=O)N1c3ccccc3C=Cc3ccccc31)C(c1ccccc1)=N2	Aspergillus terreus	MTCC-1782	-	agar diffusion	zone	750 µg/mL	13 mm
Cc1ccc(Cn2cnc3c(Nc4ccccc4)nc(C(F)(F)F)nc32)cc1	Rhinovirus	Serotype 1B	M-HELA	plaque count	EC50	-	2.3 µM
CN[C@H]1CC[C@@H](c2ccc(Cl)c(Cl)c2)c2ccccc21	Cryptococcus neoformans	3-17	-	broth dilution	MFC	-	8 µg/mL
O=C(NN1C(=O)CSC1C1C(c2ccccc2)=Nc2ccccc21)N1c2ccccc2C=Cc2ccccc21	Aspergillus terreus	MTCC-1782	-	agar diffusion	zone	1000 µg/mL	3 mm
Nc1ncnc2c1ncn2[C@@H]1C=C[C@@H](O)[C@H]1O	Measles virus	SA	CV-1	neutral red	EC50	-	>100 µg/mL
Nc1nc2c(ncn2C=C2CC2CO)c(=O)[nH]1	Human cytomegalovirus	VR6264 (ganciclovir-resistant)	-	plaque count	EC90	-	7.8 µM
CCOC(=O)/C=C/[C@H](C[C@@H]1CCNC1=O)NC(=O)[C@@H](CC(=O)[C@@H](NC(=O)c1cc(C)on1)C(C)C)Cc1ccc(F)cc1	Rhinovirus	Isolate 25	OHIO HELA-I	cytopathic effect / visual reading	EC50	-	0.02 µg/mL
CCC(CC)O[C@@H]1C=C(C(=O)O)C[C@H](N)[C@H]1NC(C)=O	Influenza B virus	Memphis/3/89	MDCK	plaque count	EC50	-	0.045 µM
Nc1ccc(Cn2cnc3c(Nc4cccc(F)c4)nc(C(F)(F)F)nc32)cc1	Rhinovirus	Serotype 4	M-HELA	plaque count	EC50	-	19 µM
N#Cc1cc([N+](=O)[O-])ccc1Oc1ccc(Cl)c(Cl)c1	Coxsackie virus	TYPE A21	VERO	-	inhibition	12.5 µg/mL	>99%
Cc1cn([C@@H]2O[C@H](CO)[C@@H](O)[C@@H]2F)c(=O)nc1N	Varicella zoster virus	Ohtomo	HELF	plaque count	inhibition	0.1 µg/mL	100%
O=C(NN1C(=O)CSC1C1C(c2ccccc2)=Nc2ccc(Cl)cc21)N1c2ccccc2C=Cc2ccccc21	Aspergillus terreus	MTCC-1782	-	agar diffusion	zone	500 µg/mL	12 mm
CCc1cn([C@@H]2O[C@H](CO)[C@@H](O)[C@@H]2O)c(=O)[nH]c1=O	Varicella zoster virus	Kawaguchi	HELF	plaque count	inhibition	100 µg/mL	0%
COC1C=CC(n2c(C(=O)NCc3cccc(F)c3)c3n(c2=O)CCN(C(=O)c2ccc(Br)c(Cl)c2)C3)=CC1	Hepatitis B virus	-	HepG2.117	PCR	EC50	-	0.1–0.5 µM
O=c1[nH]c(=O)n([C@@H]2O[C@H](CO)[C@@H](O)[C@@H]2O)cc1/C=C/Cl	Varicella zoster virus	Asahikawa	HELF	plaque count	inhibition	0.0001 µg/mL	29%
COc1ccc(-n2c(C(=O)NCc3ccccc3C#N)c3n(c2=O)CCN(C(=O)c2ccc(Br)c(Cl)c2)C3)cc1	Hepatitis B virus	-	HepG2.117	PCR	EC50	-	0.1–0.5 µM
Nc1nc2c(ncn2COCCO)c(=O)[nH]1	Herpes simplex virus 2	F23226 (acyclovir-resistant)	HFF	cytopathic effect	EC50	-	>50 µg/mL
N#Cc1ccc(Cn2cnc3c(Nc4cccc(F)c4)nc(C(F)(F)F)nc32)cc1	Rhinovirus	Serotype 1B	M-HELA	plaque count	EC50	-	2.7 µM
Nc1ncnc2c1ncn2[C@H]1C[C@H](O)[C@H](O)[C@@H]1O	Measles virus	-	CV-1	neutral red	EC50	-	1 µg/mL
CCO/N=C/c1ccc(OCCC2CCN(c3ccc(Cl)nn3)CC2)cc1	Rhinovirus	B632 (LDL receptor group 1B)	KB	neutral red	EC50	-	0.009 µM
Nc1ncnc2c1ncn2[C@@H]1CC[C@@H](O)[C@H]1O	Measles virus	Chicago	CV-1	neutral red	EC50	-	<0.1 µg/mL
N#Cc1cc(C(=O)N2CCn3c(c(C(=O)NCc4ccccc4-c4ncco4)n(-c4ccc(OC5CC5)cc4)c3=O)C2)ccc1Br	Hepatitis B virus	-	HepG2.117	PCR	EC50	-	0.1–0.5 µM
O=c1[nH]c(=O)n([C@@H]2O[C@H](CO)[C@@H](O)[C@@H]2O)cc1/C=C/Br	Varicella zoster virus	OKA	HELF	plaque count	inhibition	0.01 µg/mL	100%
C=CCc1ccc(OC)c(OC)c1	Candida tropicalis	321	-	turbidity	MIC90	-	345 µg/mL
OC[C@H]1O[C@@H](n2cnc3c(SCc4ccc(OC(F)(F)F)cc4)ncnc32)[C@H](O)[C@@H]1O	Toxoplasma gondii	RH (WILD TYPE)	-	-	inhibition	5 µM	6.9%

4 of the rows above, restated:

compound	species	strain	cells	read by	measure	dose	result
Cc1cn([C@@H]2O[C@H](CO)[C@@H](O)[C@@H]2F)c(=O)nc1N	Varicella zoster virus	Ohtomo	HELF	plaque count	inhibition	0.1 µg/mL	100%
Nc1ncnc2c1ncn2[C@H]1C[C@@H](N)[C@H](O)[C@@H]1O	Measles virus	-	CV-1	neutral red	EC50	-	>100 µg/mL
Cc1cn([C@@H]2O[C@H](CO)[C@@H](O)[C@@H]2O)c(=O)[nH]c1=O	Varicella zoster virus	KANNO	HELF	plaque count	inhibition	0.1 µg/mL	99%
Cc1ccc2c(c1)C(C1SCC(=O)N1NC(=O)N1c3ccccc3C=Cc3ccccc31)C(c1ccccc1)=N2	Aspergillus terreus	MTCC-1782	-	agar diffusion	zone	750 µg/mL	13 mm

Zones are inhibition diameters on agar. Percent inhibition refers to the dose given; in toxicity tests it is the harm to the cells. Blank or dashed fields: not listed here. ECn is the concentration giving n% inhibition of infection, replication or growth. MIC50, MIC90 and the like: level of inhibition, or share of isolates inhibited. a–b is a range or a potency band.